Results of unrelated studies side by side (data: NIAID ChemDB).

All rows: host cell toxicity; cell line: VERO; measure: CC50

Blank or dashed fields: not listed here. Rows are shuffled and stem from different studies. CCn: concentration that lowers growth or viability of the cells by n%.

smiles	read by	result
Cc1ccc2nc(Cl)c(/C=C/C(=O)c3cc4ccccc4o3)cc2c1	MTS	17.3 µM
Cc1cc(/C=N/Nc2ccnc3ccc(C4CCCCC4)cc23)c(C)n1-c1ccccc1	-	12.6 µg/mL
CC1(C)C[C@H]2[C@@H](OC(=O)[C@H](O)[C@@H](NC(=O)c3ccccc3)c3ccccc3)C34COC(=O)C3(C4)C[C@@](C)(O)[C@H]2C1	-	77.3 µg/mL
Nc1ccn([C@H]2O[C@@H](CO)[C@H](O)C2(F)F)c(=O)n1	-	>100 µM
OC[C@H]1O[C@@H](n2nc3ccnc(Cl)c3n2)[C@H](O)[C@@H]1O	trypan blue	>398 µM
CSc1nc2n(CCCCO)nc(-c3ccccc3)c(=O)n2n1	-	>500 µM
Nc1nccc2nnn([C@@H]3O[C@H](CO)[C@@H](O)[C@H]3O)c12	trypan blue	>398 µM
COc1ccc2nc(C)cc(N/N=C/c3ccc(OC)c4ccccc34)c2c1	-	2.7 µg/mL
O=c1[nH]c(=O)n([C@H]2C[C@H](O)[C@@H](CO)O2)cc1/C=C/Br	-	>500 µM
Cc1c(Cl)ccc2cc(/C=C/c3cccc4c3OCCO4)c(Cl)nc12	MTT	90.01 µM
CC(NNC(=O)c1ccncc1)c1ccccc1F	-	125 µg/mL
Cc1ccc(C(=O)N(O)CC2=C(C(=O)O)N3C(=O)[C@@H](NC(=O)Cc4ccccc4)C3SC2)cc1	-	>128 µM
O=C(Nc1ccc(N2CCSCC2)cc1)c1ccc(-c2ccccc2)cc1	-	64 µg/mL
COc1ccc(/C=N/N=C(/N)NO)c(OC)c1OC.Cc1ccc(S(=O)(=O)O)cc1	-	50 µM
Nc1ncnc2c1nnn2[C@H]1C[C@H](O)[C@@H](CO)O1	trypan blue	>396 µM
COc1ccc2c(N/N=C/c3c(OC)ccc4ccccc34)ccnc2c1	-	73 µg/mL
C/C(=N\NC(=O)c1ccncc1)C(F)(F)F	-	58 µg/mL
CC[C@H](C)[C@H](N)[C@H](O)n1nc(C)c2c(Cl)c3cc(OC)ccc3nc21	-	>100 µg/mL
CCn1cc(C(=O)O)c(=O)c2cc(F)c(N3CCN(CC(=O)c4ccccc4)CC3)cc21	-	>10 µg/mL
CC1(C)[C@@H](CO)CC[C@@]1(C)Cn1cc(I)c(=O)[nH]c1=O	-	>400 µg/mL
COc1ccc(/C=N/N=C(\N)NO)cc1.Cc1ccc(S(=O)(=O)O)cc1	-	25 µM
c1ccc(-c2cc3ccc(N4CCCCC4)nc3nc2N2CCCCC2)cc1	-	2.74 µg/mL
Cc1cn([C@H]2C[C@H](O)[C@@H](CO)S2)c(=O)[nH]c1=O	-	7.1 µM
Nc1nccc2c1ncn2[C@H]1C[C@H](O)[C@@H](CO)O1	trypan blue	>397 µM
Cc1cn([C@H]2C[C@H](N=[N+]=[N-])[C@@H](CO)S2)c(=O)[nH]c1=O	-	>100 µM
O=c1c(-c2ccccc2)nn(CCO)c2ncnn12	-	>500 µM
OC[C@H]1O[C@@H](n2nnc3ccnc(Cl)c32)C[C@@H]1O	trypan blue	>368 µM
Cc1ccc2nc(Cl)c(/C=C/C(=O)c3ccc(Cl)s3)cc2c1	MTS	48.2 µM
Cc1cc(/C=C/c2cc3ccc(Cl)c(C)c3nc2Cl)c(C)s1	MTT	72.09 µM
Nc1ncnc2c1nnn2[C@@H]1O[C@H](CO)[C@@H](O)[C@H]1O	trypan blue	4.5 µM
CCN(CC)c1ccc(/C=N/Nc2cc(C)nc3ccc(C4CCCCC4)cc23)cc1	-	12.1 µg/mL
O=[N+]([O-])c1cccc(SSc2cccc([N+](=O)[O-])c2)c1	-	143.1 µM
Nc1nccc2c1nnn2[C@@H]1O[C@H](CO)[C@@H](O)[C@H]1O	trypan blue	>398 µM
O=C(Cc1ccccc1)N[C@@H]1C(=O)N2C3=C(CSC12)CN(C(=O)c1ccc(C(F)(F)F)cc1)OC3=O	-	>128 µM
Nc1nc(=O)n([C@H]2O[C@@H](CO)[C@H](O)C2(F)F)cc1Cl	-	>100 µM
COc1cc2c(cc1OC)C1=NN(C(=O)Nc3ccc([N+](=O)[O-])cc3)C(c3ccc(F)cc3)C1C2	MTT	94.8 µM
Nc1nc2c(ncn2CSC(CO)CO)c(=O)[nH]1	-	900 µM
CC1(C)[C@@H](CO)CC[C@@]1(C)Cn1cc(Br)c(=O)[nH]c1=O	-	>400 µg/mL
O=c1[nH]c(=O)n([C@@H]2O[C@@H](CO)[C@H](O)C2(F)F)cc1Br	-	>100 µM
c1ccc(-c2ccc(CNc3cccc(-n4ccnc4)c3)cc2)cc1	-	64 µg/mL
O=c1c(-c2ccccc2)cn(CCCCO)c2ncnn12	-	>800 µM
CC1(C)[C@@H](CO)CC[C@@]1(C)Cn1cnc2c(N)ncnc21	-	>400 µg/mL
CN1CCN(c2cccc(NCc3ccc(-c4ccccc4)cc3)c2)CC1	-	1 µg/mL
CCOc1ccc2c(N/N=C/c3c(OC)ccc4ccccc34)cc(C)nc2c1	-	6.9 µg/mL
Cc1nc2n(COCCO)nc(-c3ccccc3)c(=O)n2n1	-	>500 µM
C(=C\c1ccccc1)/CCNc1ccc(N2CCSCC2)cc1	-	4 µg/mL
COc1ccc2nc(Cl)c(/C=C/C(=O)c3sccc3C)cc2c1	MTS	82.9 µM
Cc1c(Cl)ccc2cc(/C=C/C(=O)c3ccccc3Br)c(Cl)nc12	MTT	52.01 µM
O=C(Cc1ccccc1)N[C@@H]1C(=O)N2C3=C(CSC12)CN(C(=O)c1ccc(F)cc1)OC3=O	-	>128 µM
CC1(C)C[C@H]2[C@H](OC(=O)[C@H](O)[C@@H](NC(=O)c3ccccc3)c3ccccc3)C3=C(C[C@](C)(O)[C@H]2C1)C(=O)OC3	-	276.4 µg/mL
COc1ccc(/C=N/Nc2ccnc3ccccc23)c2ccccc12	-	3.5 µg/mL
Clc1ccc(CNc2ccccc2N2CCOCC2)cc1	-	4 µg/mL
Cc1nc2n(CCCCO)nc(-c3ccccc3)c(=O)n2n1	-	>980 µM
COc1ccc2nc(Cl)c(/C=C/C(=O)c3ccc(C)s3)cc2c1	MTS	45.9 µM
Cc1cn([C@H]2O[C@@H](CO)[C@H](O)C2(F)F)c(=O)[nH]c1=O	-	>100 µM
CCN(CC)CCCOc1c2ccoc2cc2oc(=O)ccc12	-	5.2 µg/mL
COc1cc2c(cc1OC)C1=NN(C(=O)Nc3ccc([N+](=O)[O-])cc3)C(c3ccncc3)C1C2	MTT	68 µM
O=C(Cc1ccccc1)N[C@@H]1C(=O)N2C(C(=O)O)=C(CN(O)C(=O)c3ccccc3)CSC12	-	>128 µM
C[C@@]1(CO)C[C@H]2[C@@H](OC(=O)[C@H](O)[C@@H](NC(=O)c3ccccc3)c3ccccc3)C3=C(C[C@](C)(O)[C@H]2C1)C(=O)OC3	-	349.8 µg/mL
Clc1ccc(CNc2ccc(N3CCOCC3)cc2)cc1	-	16 µg/mL
Cc1ccc(C(=O)CN2CCN(c3cc4c(cc3F)c(=O)c(C(=O)O)cn4C3CC3)CC2)cc1	-	>10 µg/mL
O=S1(=O)C[C@H](O)[C@@H](O)CS1	-	352.8 µM
COc1cc2c(cc1OC)C1=NN(C(N)=O)C(c3ccc(F)cc3)C1C2	MTT	177 µM
c1ccc(-c2ccc(CNc3cccc(N4CCSCC4)c3)cc2)cc1	-	32 µg/mL
COc1ccc(C(=O)/C=C/c2cc3ccc(Cl)c(C)c3nc2Cl)cc1OC	MTT	27.31 µM
COc1ccc2nc(Cl)c(/C=C/C(=O)c3cc(C)oc3C)cc2c1	MTS	>100 µM
CCCCOc1ccc2nc(C)cc(N/N=C/c3ccc(OC)c4ccccc34)c2c1	-	5.2 µg/mL
O=C(Cc1ccccc1)N[C@@H]1C(=O)N2C(C(=O)O)=C(CN(O)C(=O)c3ccc(F)cc3)CSC12	-	>128 µM
CSc1nc2n(CCO)nc(-c3ccccc3)c(=O)n2n1	-	>500 µM
CC1(C)C[C@@H]2[C@@H](OC(=O)[C@H](O)[C@@H](NC(=O)c3ccccc3)c3ccccc3)C3=C(C[C@](C)(O)[C@H]2C1)C(=O)OC3	-	414.8 µg/mL
O=c1[nH]c(=O)n([C@@H]2O[C@@H](CO)[C@H](O)C2(F)F)cc1Cl	-	>100 µM
O=C(O)c1cn(C2CC2)c2cc(N3CCN(C/C(=N/O)c4ccccc4)CC3)c(F)cc2c1=O	-	>10 µg/mL
Cc1nc2n(C/C=C\CO)nc(-c3ccccc3)c(=O)n2n1	-	950 µM
COc1ccc(C(=O)/C=C/c2cc3ccc(Cl)c(C)c3nc2Cl)c(Br)c1	MTT	39.99 µM
Nc1nccc2c1ncn2[C@H]1CC[C@@H](CO)O1	trypan blue	>429 µM
Cc1ccc2nc(Cl)c(/C=C/C(=O)c3ccc(I)s3)cc2c1	MTS	9.8 µM

Again, the opening 8 rows:

{"smiles": "Cc1ccc2nc(Cl)c(/C=C/C(=O)c3cc4ccccc4o3)cc2c1", "read by": "MTS", "result": "17.3 µM"}
{"smiles": "Cc1cc(/C=N/Nc2ccnc3ccc(C4CCCCC4)cc23)c(C)n1-c1ccccc1", "result": "12.6 µg/mL"}
{"smiles": "CC1(C)C[C@H]2[C@@H](OC(=O)[C@H](O)[C@@H](NC(=O)c3ccccc3)c3ccccc3)C34COC(=O)C3(C4)C[C@@](C)(O)[C@H]2C1", "result": "77.3 µg/mL"}
{"smiles": "Nc1ccn([C@H]2O[C@@H](CO)[C@H](O)C2(F)F)c(=O)n1", "result": ">100 µM"}
{"smiles": "OC[C@H]1O[C@@H](n2nc3ccnc(Cl)c3n2)[C@H](O)[C@@H]1O", "read by": "trypan blue", "result": ">398 µM"}
{"smiles": "CSc1nc2n(CCCCO)nc(-c3ccccc3)c(=O)n2n1", "result": ">500 µM"}
{"smiles": "Nc1nccc2nnn([C@@H]3O[C@H](CO)[C@@H](O)[C@H]3O)c12", "read by": "trypan blue", "result": ">398 µM"}
{"smiles": "COc1ccc2nc(C)cc(N/N=C/c3ccc(OC)c4ccccc34)c2c1", "result": "2.7 µg/mL"}